# Experimental data as given in ChEMBL document CHEMBL5346934 (J Med Chem, 2023).
# Test system: Cowpox virus
# Test: Antiviral activity against Cowpox virus Brighton infected in Vero cells measured after 4 days by colorimetric assay
# Type: functional, organism-based
# Settings: strain Brighton
compound,measurement,value
O=c1[nH]c(=O)n([C@H]2C[C@H](O)[C@@H](CO)S2)cc1I,EC50,100 nM
